Measured values from several laboratories, pooled; numbers as filed in NIAID ChemDB.

Common to all: growth or infection tests; agent: Mycobacterium tuberculosis

ECn is the concentration giving n% inhibition of infection, replication or growth. A number after MIC or MFC names an inhibition level or a share of isolates. Blank or dashed fields: not listed here. Conditions beyond the fields shown may differ between rows. Inhibition is in % at the dose shown (toxicity tests: loss of growth or viability). Two numbers with a dash give a range or band. MIC bound: limit read from a one-dose screen.

compound,changes,dose,strain or isolate,endpoint,method,value
C[N+](C)=c1ccc2nc3c(cc(Nc4ccccc4)c4ccccc43)oc-2c1.[Cl-],,,H37Rv,MIC bound,BACTEC,>128 µg/mL
CCC1Cn2cc([N+](=O)[O-])nc2O1,,,1 isolates ethambutol-resistant,MIC,,0.08 µg/mL
CCC(c1cccc2ccccc12)C(C#N)C#N,,12.5 µg/mL,H37Rv,inhibition,BACTEC,81%
Cc1ccc(/C=N/N=C(\N)c2ccncc2)cc1,,,H37Rv,MIC,,4 µg/mL
COc1cc(C=O)cc2c1[nH]c1ccccc12,,,,MIC,,>200 µg/mL
Cc1ccc2occ(/C=N/NC(=O)c3ccncc3)c(=O)c2c1,,,H37Rv,MIC,,1 µg/mL
COc1ccc(C(=O)Cc2nc3nnc(N)n3[nH]c2=O)cc1,,,H37Rv,MIC bound,BACTEC,>12.5 µg/mL
Cc1c(CN2CCSCC2)cc(-c2ccc(F)cc2)n1-c1ccc(Cl)cc1,,,103471,MIC,,2 µg/mL
COc1ccc(NC(=S)NNC(=O)c2ccc(NC(=O)c3ccc(OC)cc3)cc2)cc1,,,H37Rv,MIC,,>6.25 µg/mL
CC1=C(C(=O)O)N2C(=O)C(NC(=O)C(c3ccccc3)N3CSC(=S)N(C(C)C)C3)C2SC1,,,H37Rv,MIC bound,BACTEC,>12.5 µg/mL
CCCCCCCCCCCCN(CCO)CCO,,,H37Rv,MIC,,50 µg/mL
Cc1ccc(/C=N/N=C(\N)c2ccncc2)c(C)c1,,,Isolate 1751 ofloxacin-resistant,MIC,,16 µg/mL
CCOC(=O)c1c(NC(=O)c2c(F)c(F)c(F)c(F)c2F)sc2c1CCOC2,rpoB S522L mutant,,H37Rv,MIC,turbidity,0.25 µM
COc1ccc(C(=O)Nc2ccc(C(=O)N/N=C3\SCC(=O)N3C)cc2)cc1,,,H37Rv,MIC,,>6.25 µg/mL
CC(=O)N(O)CCCP(=O)(O)O,,,Dxr,MIC,,>500 µg/mL
COc1ccccc1-c1coc2c(ccc3oc(C(C)C)cc32)c1=O,,,H37Rv,MIC bound,BACTEC,>12.5 µg/mL
COc1c2c(cc3oc(=O)ccc13)OC(C)(C)C=C2,,,,MIC,,>200 µg/mL
CC1COc2c(N3CCN(C)CC3)c(F)cc3c(=O)c(C(=O)O)cn1c23,,,25 strains,MIC90,,0.78 µg/mL
CC(C)Oc1ccc(N2C(=O)CCNC2=S)cc1,,,H37Rv,MIC,,2.5 µg/mL
C/[N+]([O-])=C\c1ncc([N+](=O)[O-])n1CCO,,6.25 µg/mL,H37Rv,inhibition,resazurin,1%
C/C(=N\OCCc1n[nH]c(=S)o1)c1ccccc1,,12.5 µg/mL,,inhibition,,7–56%
Cc1c(C(=O)c2ccccc2)oc2cc3occ(C=C4C(=O)NC(=S)NC4=O)c(=O)c3cc12,,,H37Rv,EC90,resazurin,>100 µg/mL
CC(C)(C)OC(=O)N1CCC2(CC1)CC(=O)c1ccc(OCC(O)Cn3cc(-c4ccccc4)nn3)cc1O2,,,H37Rv,MIC,agar,12.5 µg/mL
NNC(=O)c1cccs1,KatG S315T,,INM27833,MIC99.9,visual reading,>50 µg/mL
Cc1cccc(/C=N/NC(=S)N(C)C)n1.[Cl][Cu][Cl],,,TF274,MIC90,,0.78 µM
C/C(=N\OCc1nnc(-c2ccc(Cl)cc2)o1)c1ccccc1,,12.5 µg/mL,,inhibition,,7–56%
COc1cc(O)c2c(c1)[C@H](O)C(O)CC1OC1C(=O)/C=C\CC(C)OC2=O,,12.5 µg/mL,H37Rv,inhibition,BACTEC,33%
COc1ccc(C(=O)Nc2ccc(-c3nnc(Nc4ccc(C)cc4)o3)cc2)cc1,,,H37Rv,MIC,,>6.25 µg/mL
COc1ccc2ncc(C(=O)O)c(Nc3ccc(OCCCN4CCOCC4)cc3)c2c1,,,H37Rv,MIC,resazurin,30.68 µM
Cn1c(C(O)(Cc2ccccn2)Cc2ccccn2)cc2ccccc21,,,H37Rv,MIC bound,,>6.25 µg/mL
CCCCCCCCCCCCCCNCCCO,,,H37Rv,MIC,,12.5 µg/mL
Cc1ccc(-c2cn(CC(O)COc3ccc4c(c3)OC3(CCN(C(=O)OC(C)(C)C)CC3)CC4=O)nn2)cc1,,,H37Rv,MIC,agar,6.25 µg/mL
C/C=C1/C[C@@H](C)[C@@](C)(O)C(=O)OC[C@H]2CCN3CC[C@@H](OC1=O)[C@@H]23.O=C(O)[C@H](O)[C@@H](O)C(=O)O,,12.8 µg/mL,H37Rv,inhibition,BACTEC,5%
CO[C@H]1[C@@H](O)[C@H](n2ccc(=O)[nH]c2=O)O[C@@H]1[C@@H](O[C@H]1OC(C(=O)N[C@H]2CCC[C@@H](C)NC2=O)=C[C@H](O)[C@@H]1O)C(N)=O,,,NO.74,MIC,,32 µg/mL
O=C(O)CCNC(=S)Nc1ccccc1,,,H37Rv,MIC,,2.5 µg/mL
CCCCCc1ccc(-c2cn(CC(O)COc3ccc4c(c3)OC3(CCN(C(=O)OC(C)(C)C)CC3)CC4=O)nn2)cc1,,,H37Rv,MIC,agar,3.13 µg/mL
NC(=O)c1cnccn1,,,1620,MIC,,30 µg/mL
CCc1[nH]c2ccccc2c1N1C(=O)CC2(CCN(Cc3ccccc3)CC2)CC1=O,,,H37Rv,MIC bound,resazurin,>6.25 µg/mL
c1ccc(C(=NOCc2nnc(N3CCCCC3)o2)c2ccccc2)cc1,,12.5 µg/mL,,inhibition,,7–56%
CCCCCCCCCCCCCCNC(C)(C)CO,,,H37Rv,MIC,,6.25 µg/mL
C/C(=N\OCc1nnc(/C=C/c2ccccc2)o1)c1ccccc1,,12.5 µg/mL,,inhibition,,7–56%
CC(C)c1c(O)ccc2c1CCC1C(C)(C)CCC[C@]21C,,,H37Rv,MIC,,16 µg/mL
COc1ccc2c(c1)N(C[C@H](C)CN(C)C)c1ccccc1S2,,,ST. 5,MIC,,25 µg/mL
O=c1c(/C=N/c2nc3c(Cl)cccc3s2)coc2ccc(Cl)cc12,,,H37Rv,MIC,,10 µg/mL
CNc1cc(F)cc2cc3[nH]c(-c4ccc(C(=O)O)cc4CN(C)C4CCCCC4)cc3nc12,,,H37Rv,MBC,visual reading / absorbance,8 µg/mL
NNC(=O)CNc1cccc(I)c1,,12.5 µg/mL,H37Rv,inhibition,BACTEC,-8%
CCCCCOc1ccc(NC(=S)NCCC(=O)O)cc1,,,H37Rv,MIC,,1.3 µg/mL
C=CC(C)(C)c1c2c(c(O)c3ccc(=O)oc13)C(=O)CC(C)(C)O2,,,,MIC,,200 µg/mL
CCC(C)Oc1ccc(NC(=S)NCCC(=O)O)cc1,,,H37Rv,MIC,,2.5 µg/mL
COc1ccc(-c2nnc(CCON=C(c3ccccc3)c3ccccc3)o2)cc1,,12.5 µg/mL,,inhibition,,7–56%
Cc1nc([N+](=O)[O-])cn1CC(COC[C@H]1O[C@@H]2OC(C)(C)O[C@@H]2[C@H]2OC(C)(C)O[C@H]21)OCc1ccc(OC(F)(F)F)cc1,,,H37Rv,MIC,agar,3.13 µg/mL
CCOC(=O)C(Cc1ccccc1)NP(=O)(CCC(=O)N1C[C@@H](n2cnc3c(=O)[nH]c(N)nc32)[C@H](OC[C@@H](O)P(=O)(NC(Cc2ccccc2)C(=O)OCC)NC(Cc2ccccc2)C(=O)OCC)C1)NC(Cc1ccccc1)C(=O)OCC,,,H37Ra,MIC90,resazurin / fluorescence,22 µM
Cc1cc(=O)oc2cc3occ(C=C4C(=O)NC(=S)NC4=O)c(=O)c3cc12,,,H37Rv,EC90,resazurin,>100 µg/mL
CCCCc1cn(CC(O)COc2ccc3c(c2)OC2(CCN(C(=O)OC(C)(C)C)CC2)CC3=O)nn1,,,H37Rv,MIC,agar,25 µg/mL
C=CCNc1nnc(CCO/N=C(\C)c2ccccc2)o1,,12.5 µg/mL,,inhibition,,7–56%
CCNC1Oc2cc(C)c(C)cc2C(=O)/C1=C/Nc1ccc2[nH]c(=S)sc2c1,,,H37Rv,MIC,,5 µg/mL
Clc1ccc(-c2nnc(CCON=C(c3ccccc3)c3ccccc3)o2)cc1,,12.5 µg/mL,,inhibition,,7–56%
CCCCCCCCCCCCCCCOC(COC[C@H]1O[C@@H]2OC(C)(C)O[C@@H]2[C@H]2OC(C)(C)O[C@H]21)Cn1cnc([N+](=O)[O-])c1,,,H37Rv,MIC,agar,3.13 µg/mL
O=C(N/N=C/c1coc2ccccc2c1=O)c1ccncc1,,,H37Rv,MIC,,10 µg/mL
CC(C)S(=O)(=O)n1c(N)nc2ccc(/C(=N/O)c3ccccc3)cc21,,,H37Rv,MIC bound,BACTEC,>12.5 µg/mL
N#CCC(=O)N/N=C/c1coc2ccccc2c1=O,,,H37Rv,MIC,,10 µg/mL
COc1ccc(C(=O)Nc2ccc(-c3nnc(Nc4ccccc4)o3)cc2)cc1,,6.25 µg/mL,H37Rv,inhibition,,7%
CCN(CC)CCN=c1nc(/C=C/C=C/NN(C)C(=S)SC)c(C)nn1C,,,H37Rv,MIC bound,BACTEC,≤128 µg/mL
CC1(C)O[C@H]2[C@@H](O1)[C@@H](Cn1cncc1[N+](=O)[O-])O[C@@H]1OC(C)(C)O[C@@H]12,,,H37Rv,MIC,agar,12.5 µg/mL
OCCN1CCN(CC/C=C2/c3ccccc3Sc3ccc(Cl)cc32)CC1,,,ST. 5,MIC,,6.25 µg/mL
COc1ccc(S(=O)(=O)NC(=S)S)cc1,,,H37Rv,MIC,BACTEC,4 µg/mL
CCN1C(=O)CS/C1=N\NC(=O)c1ccc(NC(=O)c2ccc(OC)cc2)cc1,,,H37Rv,MIC,,>6.25 µg/mL
CCCCCC[C@]1(C)Cn2cc([N+](=O)[O-])nc2O1,,,H37Rv,MIC100,visual reading / absorbance,0.015 µg/mL
CN(C)[C@@H]1C(=O)C(C(=O)NCNC2(C(=O)[O-])CCCC2)=C(O)[C@@]2(O)C(=O)C3=C(O)c4c(O)cccc4[C@@](C)(O)[C@H]3C[C@@H]12.[Na+],,12.5 µg/mL,H37Rv,inhibition,BACTEC,0%
OCCN1CCN(CC/C=C2\c3ccccc3Sc3ccc(C(F)(F)F)cc32)CC1,,,ST. 5,MIC,,6.25 µg/mL
Nc1ccc(-c2nnc(CCON=C(c3ccccc3)c3ccccc3)o2)cc1,,12.5 µg/mL,,inhibition,,7–56%
CN1CCN(c2n[nH]c(=O)c3c2nnn3Cc2ccccc2)CC1,,6.25 µg/mL,H37Rv,inhibition,resazurin,19%
Oc1cccc2c1[C@H](O)[C@H]1O[C@H]1C21Oc2cccc3cccc(c23)O1,,,,MIC,,>200 µg/mL
N/C(=N\N=C\c1cccc(Br)c1)c1ccncc1,,,Isolate 1751 ofloxacin-resistant,MIC,,16 µg/mL
Cc1cc(=O)oc2cc3occ(C=C4C(=O)NC(=O)NC4=O)c(=O)c3cc12,,,H37Rv,EC90,resazurin,>100 µg/mL
CCCCCCCCCCCCNCCCO,,,H37Rv,MIC,,12.5 µg/mL
CC1(C)O[C@H]2[C@@H](O1)[C@@H](Cn1ccnc1[N+](=O)[O-])O[C@@H]1OC(C)(C)O[C@@H]12,,,H37Rv,MIC,agar,6.25 µg/mL
CC1CCC(C(C)C)C2(C1)OC(CCl)CS2,,12.5 µg/mL,H37Rv,inhibition,BACTEC,-9%
Cc1cc2c(c(O)c1-c1c(C)cc(O)c3c1C(=O)C=CC3=O)C(=O)CC[C@H]2O,,,,MIC,,50 µg/mL
CCCC(NCCNC(CCC)C(=O)O)C(=O)O,,6.25 µg/mL,H37Rv,inhibition,resazurin,-4%
COc1ccc(-c2cn(CC(O)COc3ccc4c(c3)OC3(CCCCC3)CC4=O)nn2)cc1,,,H37Rv,MIC,agar,12.5 µg/mL
OCCN1CCN(CC/C=C2/c3ccccc3Sc3ccc(C(F)(F)F)cc32)CC1,,,ST. 5,MIC,,6.25 µg/mL
Cc1c(NC(=O)CSC(=S)N(C)C)c(=O)n(-c2ccccc2)n1C,,,H37Rv,MIC bound,BACTEC,>12.5 µg/mL
COc1ccc(C(=O)Nc2ccc(C(=O)NN3C(=O)CSC3c3ccc([N+](=O)[O-])o3)cc2)cc1,,,H37Rv,MIC,,>6.25 µg/mL
Cc1cc(CCN)c(C)c2c1oc1ccccc12,,12.5 µg/mL,H37Rv,inhibition,BACTEC,99%
CCCCOc1ccc(N2C(=O)CCNC2=S)cc1,,,H37Rv,MIC,,2.5 µg/mL

Repeating the final 11 entries:

compound	changes	dose	strain or isolate	endpoint	method	value
CCCCCCCCCCCCNCCCO			H37Rv	MIC		12.5 µg/mL
CC1(C)O[C@H]2[C@@H](O1)[C@@H](Cn1ccnc1[N+](=O)[O-])O[C@@H]1OC(C)(C)O[C@@H]12			H37Rv	MIC	agar	6.25 µg/mL
CC1CCC(C(C)C)C2(C1)OC(CCl)CS2		12.5 µg/mL	H37Rv	inhibition	BACTEC	-9%
Cc1cc2c(c(O)c1-c1c(C)cc(O)c3c1C(=O)C=CC3=O)C(=O)CC[C@H]2O				MIC		50 µg/mL
CCCC(NCCNC(CCC)C(=O)O)C(=O)O		6.25 µg/mL	H37Rv	inhibition	resazurin	-4%
COc1ccc(-c2cn(CC(O)COc3ccc4c(c3)OC3(CCCCC3)CC4=O)nn2)cc1			H37Rv	MIC	agar	12.5 µg/mL
OCCN1CCN(CC/C=C2/c3ccccc3Sc3ccc(C(F)(F)F)cc32)CC1			ST. 5	MIC		6.25 µg/mL
Cc1c(NC(=O)CSC(=S)N(C)C)c(=O)n(-c2ccccc2)n1C			H37Rv	MIC bound	BACTEC	>12.5 µg/mL
COc1ccc(C(=O)Nc2ccc(C(=O)NN3C(=O)CSC3c3ccc([N+](=O)[O-])o3)cc2)cc1			H37Rv	MIC		>6.25 µg/mL
Cc1cc(CCN)c(C)c2c1oc1ccccc12		12.5 µg/mL	H37Rv	inhibition	BACTEC	99%
CCCCOc1ccc(N2C(=O)CCNC2=S)cc1			H37Rv	MIC		2.5 µg/mL